Measured values from several laboratories, pooled; numbers as filed in NIAID ChemDB.

Shared fields: toxicity to cultured cells; cell line: C8166; endpoint: CC50

Lines come from different laboratories, so protocols vary. CCn: concentration that lowers growth or viability of the cells by n%.

O=c1ccn([C@H]2CC[C@@H](CO)O2)c(=O)[nH]1 ; read by: MTT ; value: >500 µg/mL
Cc1cn([C@@H]2C[C@@H](N=[N+]=[N-])[C@H](COP(=O)(O)OC[C@H]3O[C@@H](n4cc(C)c(=O)[nH]c4=O)C[C@@H]3N=[N+]=[N-])O2)c(=O)[nH]c1=O ; value: 1000 µM
Nc1ncnc2c1ncn2CCOCP(=O)(O)O ; value: 65 µM
CCC(CC)NC(=O)C[C@@H](C(=O)NC[C@@H](O)[C@H](Cc1ccccc1)NC(=O)[C@H](CC(N)=O)NC(=O)c1cnc2ccccc2n1)C(C)(C)C ; value: >1 µM
Cc1cccc(C(=O)CC2(O)C(=O)Nc3ccc(Br)cc32)c1 ; read by: MTT ; value: >400 µM
CCCCCCNC(=O)OCCCCCCNC(=O)OC1CCN(C(=O)Oc2ccc(Oc3ccccc3)cc2)CC1 ; read by: MTT / absorbance ; value: >100 µM
CC(C)(C)OC(=O)[C@@H]1CCCN1C[C@@H](O)[C@H](Cc1ccccc1)NC(=O)[C@H](CC(N)=O)NC(=O)OCc1ccccc1 ; read by: MTT ; value: >200 µg/mL
COc1ccc([C@@H]2CC(=O)c3c(O)cc(O)cc3O2)cc1O ; value: 15 µg/mL
O=C(CC1(O)C(=O)Nc2ccc(Cl)cc21)c1ccc(F)cc1 ; read by: MTT ; value: 124.4 µM
C[C@H](CCC(=O)NCCS(=O)(=O)O)[C@H]1CC[C@H]2[C@@H]3CC[C@@H]4C[C@H](O)CC[C@]4(C)C3CC[C@]12C ; read by: MTT ; value: >25 µg/mL
O=c1[nH]cnc2c1ncn2[C@H]1CC[C@@H](CO)O1 ; value: >100 µM
C=C(C)C1Oc2ccc(C(C)=O)cc2C1OC(C)=O ; value: 50 µg/mL
C[C@@H]1O[C@@H](Oc2c(-c3ccc(O)c(O)c3)oc3cc(O)cc(O)c3c2=O)[C@H](O)[C@H](O)[C@H]1O ; value: >100 µg/mL
C=CCOn1c(C=C)nc2c(C)cccc21 ; value: 16 µM
Cc1ccccc1NC(=O)OC(CN1CCCc2ccccc21)c1ccc(Cl)cc1 ; read by: MTT / absorbance ; value: 109 µg/mL
CCOP(=O)(N[C@@H](C)C(=O)OC)OC[C@H]1O[C@@H](n2cc(C)c(=O)[nH]c2=O)C[C@@H]1N=[N+]=[N-] ; read by: MTT ; value: >500 µg/mL
CC(C)c1cc2c(c(O)c1O)[C@@]1(C(=O)O)CCCC(C)(C)C1CC2 ; read by: XTT ; value: 20 µM
CCC(CC)NC(=O)C[C@@H](C(=O)NC[C@@H](O)[C@H](Cc1ccccc1)NC(=O)[C@@H](NC(=O)c1ccc2ccccc2n1)C(C)C)C(C)(C)C ; value: >1 µM
COc1ccc(C(=O)CC2(O)C(=O)Nc3ccc(Cl)cc32)cc1OC ; read by: MTT ; value: >400 µM
C=C(C)C1Oc2ccc(C(C)=O)cc2C1O ; value: 50 µg/mL
CC(C)=CCOn1c(C=C(C)C)nc2ccc(C)cc21 ; value: 50 µM
CC(C)[C@H](NC(=O)c1ccc2ccccc2n1)C(=O)N[C@@H](Cc1ccccc1)[C@H](O)CN1CC[C@@H](OCc2ccncc2)C[C@H]1C(=O)NC(C)(C)C ; value: >1 µM
CCC(CC)NC(=O)C[C@@H](C(=O)NC[C@@H](O)[C@H](Cc1ccccc1)NC(=O)[C@H](CC(N)=O)NC(=O)OCc1ccccc1)C(C)(C)C ; value: >1 µM
CCCCCCCOn1c(CCCCCC)nc2c(C)cccc21 ; value: 400 µM
Oc1cc(O)c2c(c1)O[C@H](c1cc(O)c(O)c(O)c1)[C@H](O)C2 ; value: >100 µg/mL
N#C/C=C1/c2cc(S)cc([N+](=O)[O-])c2-c2c1cc(S(=O)(=O)NCc1ccccc1)cc2[N+](=O)[O-] ; read by: MTT / absorbance ; value: >100 µM
CCC(CC)NC(=O)C[C@@H](C(=O)NC[C@@H](O)[C@H](Cc1ccccc1)NC(=O)[C@@H](NC(=O)OCc1ccccc1)C(C)O)C(C)(C)C ; value: >1 µM
Cc1cn([C@H]2C[C@H](N=[N+]=[N-])[C@@H](CO)O2)c(=O)[nH]c1=O ; value: 403 µM
CCCC(=O)Oc1ccc(COP(=O)(OC[C@H]2CC[C@@H](n3cnc4c(=O)[nH]cnc43)O2)OC[C@H]2O[C@@H](n3cc(C)c(=O)[nH]c3=O)C[C@@H]2N=[N+]=[N-])cc1 ; value: 90 µM
CC(C)(C)OC(=O)[C@@H]1CCCN1C[C@H](O)[C@H](Cc1ccccc1)NC(=O)[C@H](CC(N)=O)NC(=O)OCc1ccccc1 ; read by: MTT ; value: >200 µg/mL
O=C(CC1(O)C(=O)Nc2ccc(Cl)cc21)c1cccc(Br)c1 ; read by: MTT ; value: 147 µM
Nc1ccn([C@H]2CC[C@@H](CO)O2)c(=O)n1 ; value: >1000 µM
CCCCN1C[C@H](O)[C@@H](O)[C@H](O)[C@H]1CO ; read by: MTT ; value: >500 µg/mL
CC(=O)c1ccc(O)c(CC(O)C(C)(C)O)c1 ; value: 8 µg/mL
O=C(CC1(O)C(=O)Nc2ccc(Br)cc21)c1cccc(Br)c1 ; read by: MTT ; value: 145 µM
Cc1cn([C@H]2C[C@H](N=[N+]=[N-])[C@@H](CO)O2)c(=O)[nH]c1=O ; read by: XTT ; value: >1000 µM
Cc1cccc(C)c1OCC(=O)N[C@@H](Cc1ccccc1)[C@H](O)CN(CC(C)C)S(=O)(=O)c1ccc(N)cc1 ; value: >1 µM
CC(C)[C@H](NC(=O)OCc1ccccc1)C(=O)N[C@@H](Cc1ccccc1)[C@H](O)CNC(=O)[C@H](CC(=O)NC(C)(C)C)C(C)(C)C ; value: >1 µM
CCCCOn1c(CCC)nc2c(C)cccc21 ; value: 40 µM
COc1ccc(Cc2nccc3cc(OC)c(OC)cc23)cc1OC ; read by: MTT ; value: 5 µg/mL
O=c1c(O[C@@H]2O[C@H](CO)[C@@H](O)[C@H](O)[C@H]2O)c(-c2ccc(O)c(O)c2)oc2cc(O)cc(O)c12 ; value: >100 µg/mL
COc1ccccc1C(=O)CC1(O)C(=O)Nc2ccccc21 ; read by: MTT ; value: >400 µM
Cc1cccc(C)c1OCC(=O)N[C@@H](Cc1ccccc1)[C@H](O)CN1CC[C@@H](Sc2ccncc2)C[C@H]1C(=O)NC(C)(C)C ; value: >1 µM
O=C(CC1(O)C(=O)Nc2ccccc21)c1ccccc1Cl ; read by: MTT ; value: >400 µM
O=c1cc(-c2ccccc2)oc2cc(O)cc(O)c12 ; value: 50 µg/mL
Cc1cn([C@@H]2C[C@@H](N=[N+]=[N-])[C@H](COP(=O)(OCc3ccc(OC(=O)C(C)(C)C)cc3)OC[C@H]3O[C@@H](n4cc(C)c(=O)[nH]c4=O)C[C@@H]3N=[N+]=[N-])O2)c(=O)[nH]c1=O ; value: 20 µM
O=C(CC1(O)C(=O)Nc2ccc(Cl)cc21)c1cccc([N+](=O)[O-])c1 ; read by: MTT ; value: 121.1 µM
COc1ccc(C2CC(=O)c3c(O)cc(O[C@@H]4O[C@H](COC5O[C@@H](C)[C@H](O)[C@@H](O)[C@H]5O)[C@@H](O)[C@H](O)[C@H]4O)cc3O2)cc1 ; value: 40 µg/mL

The first 7 rows once more:

{"smiles": "O=c1ccn([C@H]2CC[C@@H](CO)O2)c(=O)[nH]1", "read by": "MTT", "value": ">500 µg/mL"}
{"smiles": "Cc1cn([C@@H]2C[C@@H](N=[N+]=[N-])[C@H](COP(=O)(O)OC[C@H]3O[C@@H](n4cc(C)c(=O)[nH]c4=O)C[C@@H]3N=[N+]=[N-])O2)c(=O)[nH]c1=O", "value": "1000 µM"}
{"smiles": "Nc1ncnc2c1ncn2CCOCP(=O)(O)O", "value": "65 µM"}
{"smiles": "CCC(CC)NC(=O)C[C@@H](C(=O)NC[C@@H](O)[C@H](Cc1ccccc1)NC(=O)[C@H](CC(N)=O)NC(=O)c1cnc2ccccc2n1)C(C)(C)C", "value": ">1 µM"}
{"smiles": "Cc1cccc(C(=O)CC2(O)C(=O)Nc3ccc(Br)cc32)c1", "read by": "MTT", "value": ">400 µM"}
{"smiles": "CCCCCCNC(=O)OCCCCCCNC(=O)OC1CCN(C(=O)Oc2ccc(Oc3ccccc3)cc2)CC1", "read by": "MTT / absorbance", "value": ">100 µM"}
{"smiles": "CC(C)(C)OC(=O)[C@@H]1CCCN1C[C@@H](O)[C@H](Cc1ccccc1)NC(=O)[C@H](CC(N)=O)NC(=O)OCc1ccccc1", "read by": "MTT", "value": ">200 µg/mL"}